# Library screen at single concentrations

From ChEMBL document CHEMBL3988442, “University of Dundee, Small-Polar-MMV Screening Library” (2021).

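Whole-cell growth test on Mycobacterium tuberculosis, read after 3 days in glucose-containing 7H9 medium; the read-out is not stated. Tested at 500 µM. Higher reads as more growth inhibition (inferred: compounds with an IC50 in retests scored well above the rest). Size under these conditions: about 18,000 compounds, about 1,400 of them at 50% or above in at least one test.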

The filed quantity is “Percent Effect” (%). How 0% and 100% were set is not recorded. Most values in the screen are low, and negative values occur. Many other results are left out here, so strong results are more common than in the screen.

Compound,percent effect
CCN(Cc1nc(CSC)no1)[C@H]1COC[C@@H]1O,1.046%
COC(=O)c1ccc(Cl)c(CN(C)CC(N)=O)c1,20.9%
CC(=O)c1ccc(NCc2ncc(C)o2)nc1,-5.879%
NCCOc1ccc(OCCN)cc1,12.07%
NC(=O)c1ccc(NCC(=O)N2CCOCC2)cc1Cl,2.719%
COCCc1noc(C2CCN(CC(N)=O)CC2)n1,-5.264%
COc1ccc(CCNc2ccc3nnnn3n2)cc1,58.27%
CC(C)n1cc(C(=O)NCCC2CN(C)CCO2)cn1 (stereo not shown),3.467%
Cc1cc(O)nc(N2CCCCC2)n1,4.171%
CC(=O)Nc1nc(CCN)cs1,18.23%
COc1ccc(-c2[nH][nH]c(=O)c2CCN)cc1,-3.114%
Cc1cccnc1CCO,0.4935%
O=C(CN1CCCC1)NCC(=O)Nc1ccc(F)cc1,3.116%
CCn1ncnc1CN1C[C@H]2CC[C@@H](C1)[C@H]2N(C)C,-0.3656%
NCCc1n[nH]c(=O)n1-c1ccc(Cl)cc1,15.82%
Cc1cc(NC(=O)NCc2cnn(C)c2C)ccn1,4.114%
Cn1ccc(C(=O)NCc2nccs2)cc1=O,-5.574%
Cc1nccc(C(=O)NC2CCc3nnc(C)n3C2)n1 (stereo not shown),8.554%
CCCC(=O)NC1CCNC2(CCC2)C1 (stereo not shown),4.998%
OCc1csc2nccn12,7.888%
CC(C)c1cc(N)n(C(C)C)n1,12.64%
CC(C)CC1CCN(C(=O)CCn2cnnn2)C1 (stereo not shown),70.8%
CCCn1nnnc1CSc1ccccc1C#N,38.01%
Cn1nnnc1SCC(=O)Nc1cc(Cl)ccc1C#N,7.832%
Cc1nnc(CNC(=O)C2CC(=O)N(C(C)(C)C)C2)o1 (stereo not shown),4.321%
CCC(C)(C)NC(=O)c1ccn(-c2ccccc2F)n1,81.41%
Cc1c(Br)cccc1C(=O)NCCCNS(C)(=O)=O,15.17%
N#Cc1ccnc(SCC(=O)Nc2ccncc2)c1,6.699%
CCC[C@H]1CN(C(=O)c2cnc(C)nc2)C[C@@H]1N,7.465%
CC(C(=O)N(C)c1ccccc1)N1CCC(O)CC1 (stereo not shown),9.57%
CCN1CCCC1CNC(=O)NCCN1CCOCC1 (stereo not shown),-3.233%
CCn1cnnc1CNC(=O)NC(C)Cn1cccn1 (stereo not shown),10.13%
CNCCCNC(=O)CCc1ccc(F)cc1,65.92%
Cc1cc(NC(=O)CN2CCN(C)CC2)n(C)n1,7.798%
CC(C)c1nsc(N2CCOCC2C)n1 (stereo not shown),16.94%
O=C(c1cnsn1)N1CCSCC1c1ccccc1 (stereo not shown),10.12%
c1c[nH]c(C2CCNCC2)n1,-2.624%
CCc1ccc(C(=O)NC2CCS(=O)(=O)C2)o1 (stereo not shown),20.2%
COCc1ccccc1CNC(=O)NC(C)C,-1.532%
COc1ccc(NC(=O)N2CCOCC2)cc1F,-1.647%
CCCn1c(C)nnc1CSc1ncnn1C,-10.87%
Cc1cnc(C(=O)NCCCc2ccccn2)cn1,57.77%
O=C(NCc1ccccc1OCC1CC1)c1c[nH]nn1,40.66%
CCN(CC)S(=O)(=O)c1cccc(NCC(=O)OC)c1,18.33%
COc1ccc(NC(=O)CN)cc1Cl,21.09%
CN(C)CCO[C@@H]1COCC[C@H]1NS(C)(=O)=O,2.098%
CN[C@@H]1COC[C@H]1O,-5.182%
CC(C)CN1C(=O)C(N)c2ccccc21 (stereo not shown),65.8%
Cc1ccc(C(=O)N2CCOCC2(C)C)cc1F,22.8%
Cc1cc(=O)[nH]c(CN)n1,-8.979%
C[S+]([O-])c1nncn1Cc1ccccc1Cl (stereo not shown),20.47%
COc1cc(N2CCNCC2)ccc1F,54.37%
COCc1noc(CCNC(=O)[C@H]2CCC[C@H](O)C2)n1,-1.582%
O=S1(=O)CCCC1CNCc1cccc2cccnc12 (stereo not shown),18.37%
O=C(c1ccc(N2CCCCC2=O)cc1)N1CCC1,9.621%
CC(O)CN1CCN(c2ncnc3c2CCC3)CC1 (stereo not shown),5.911%
COC(=O)[C@@H](C)NC1CCN(c2ccccn2)CC1,15.68%

The first 4 entries again:

Result for CCN(Cc1nc(CSC)no1)[C@H]1COC[C@@H]1O was 1.046%.
Result for COC(=O)c1ccc(Cl)c(CN(C)CC(N)=O)c1 was 20.9%.
Result for CC(=O)c1ccc(NCc2ncc(C)o2)nc1 was -5.879%.
Result for NCCOc1ccc(OCCN)cc1 was 12.07%.